Residue numbers refer to the chain shown, from its start.
B1: 4838_L06 (PGT-121) (antibody, V domains shown)
VH: QMQLQESGPGLVKPSETLSLTCSVSGASISDSYWSWIRRSPGKGLEWIGYVHKSGDTNYSPSLKSRVNLSLDTSKNQVSLSLVAATAADSGKYYCARTLHGRRIYGIVAFNEWFTYFYMDVWGNGTQVTVSS
VL: SDISVAPGETARISCGEKSLGSRAVQWYQHRAGQAPSLIIYNNQDRPSGIPERFSGSPDSPFGTTATLTITSVEAGDEADYYCHIWDSRVPTKWVFGGGTTLTVL
B2: 4877_D15 (PGT-122) (antibody, V domains shown)
VH: QVHLQESGPGLVKPSETLSLTCNVSGTLVRDNYWSWIRQPLGKQPEWIGYVHDSGDTNYNPSLKSRVHLSLDKSKNLVSLRLTGVTAADSAIYYCATTKHGRRIYGVVAFKEWFTYFYMDVWGKGTSVTVSS
VL: TFVSVAPGQTARITCGEESLGSRSVIWYQQRPGQAPSLIIYNNNDRPSGIPDRFSGSPGSTFGTTATLTITSVEAGDEADYYCHIWDSRRPTNWVFGEGTTLIVL
B3: 4858_P08 (PGT-123) (antibody, V domains shown)
VH: QLHLQESGPGLVKPPETLSLTCSVSGASINDAYWSWIRQSPGKRPEWVGYVHHSGDTNYNPSLKRRVTFSLDTAKNEVSLKLVDLTAADSATYFCARALHGKRIYGIVALGELFTYFYMDVWGKGTAVTVSS
VL: SSMSVSPGETAKISCGKESIGSRAVQWYQQKPGQPPSLIIYNNQDRPAGVPERFSASPDFRPGTTATLTITNVDAEDEADYYCHIYDARGGTNWVFDRGTTLTVL
B4: 5145_B14 (PGT-127) (antibody, V domains shown)
VH: QPQLQESGPGLVEASETLSLTCTVSGDSTGRCNYFWGWVRQPPGKGLEWIGSLSHCRSYYNTDWTYHNPSLKSRLTISLDTPKNQVFLRLTSVTAADTATYYCARFGGEVLVYRDWPKPAWVDLWGRGTLVVTVSS
VL: QSALTQPPSASGSPGQSITISCTGTSNNFVSWYQQYPGKAPKLVIYEVNKRPSGVPDRFSGSKSGSTASLTVSGLQADDEGVYYCSSLVGNWDVIFGGGTKLTVL
B5: 5114_A19 (PGT-128) (antibody, V domains shown)
VH: QPQLQESGPTLVEASETLSLTCAVSGDSTAACNSFWGWVRQPPGKGLEWVGSLSHCASYWNRGWTYHNPSLKSRLTLALDTPKNLVFLKLNSVTAADTATYYCARFGGEVLRYTDWPKPAWVDLWGRGTLVTVSS
VL: B4 VL with Y36H, P37A, E47D, S66N, A77T, G81A, S86G
B6: 5147_N06 (PGT-130) (antibody, V domains shown)
VH: QVQLQESGPGLVKPAETLSLTCSVSGESINTGHYYWGWVRQVPGKGLEWIGHIHYTTAVLHNPSLKSRLTIKIYTLRNQITLRLSNVTAADTAVYHCVRSGGDILYYYEWQKPHWFSPWGPGIHVTVSS
VL: QSALTQPPSASGSLGQSVTISCNGTSSDIGGWNFVSWYQQFPGRAPRLIIFEVNKRPSGVPGRFSGSKSGNSASLTVSGLQSDDEGQYFCSSLFGRWDVVFGGGTKLTVL
B7: 5136_H01 (PGT-131) (antibody, V domains shown)
VH: QVQLQESGPGLVKPSETLSLTCTVSGDSINTGHHYWGWVRQVPGKGPEWIAHIHYNTAVLHNPALKSRVTISIFTLKNLITLSLSNVTAADTAVYFCVRSGGDILYYIEWQKPHWFYPWGPGILVTVSS
VL: QSALTQPPSASGSLGQSLTISCSGTGSDIGSWNFVSWYQQFPGRAPNLIIFEVNRRRSGVPDRFSGSKSGNTASLTVSGLRSEDEAEYFCSSLSGRWDIVFGGGTKVTVL
B8: 5343_B08 (PGT-135) (antibody, V domains shown)
VH: QLQMQESGPGLVKPSETLSLSCTVSGDSIRGGEWGDKDYHWGWVRHSAGKGLEWIGSIHWRGTTHYKESLRRRVSMSIDTSRNWFSLRLASVTAADTAVYFCARHRHHDVFMLVPIAGWFDVWGPGVQVTVSS
VL: EIVMTQSPDTLSVSPGETVTLSCRASQNINKNLAWYQYKPGQSPRLVIFETYSKIAAFPARFVASGSGTEFTLTINNMQSEDVAVYYCQQYEEWPRTFGQGTKVDIK
B9: 5329_C19 (PGT-136) (antibody, V domains shown)
VH: QLQLQESGPGLVKPSETLSLTCTVSGGSMRGTDWGENDFHYGWIRQSSAKGLEWIGSIHWRGRTTHYKTSFRSRATLSIDTSNNRFSLTFSFVTAADTAVYYCARHKYHDIFRVVPVAGWFDPWGQGLLVTVSS
VL: EIVMTQSPPTLSVSPGETATLSCRASQNVKNNLAWYQLKPGQAPRLLIFDASSRAGGIPDRFSGSGYGTDFTLTVNSVQSEDFGDYFCQQYEEWPRTFGQGTKVDIK
B10: 4995_P16 (PGT-145) (antibody, V domains shown)
VH: QVQLVQSGAEVKKPGSSVKVSCKASGNSFSNHDVHWVRQATGQGLEWMGWMSHEGDKTGLAQKFQGRVTITRDSGASTVYMELRGLTADDTAIYYCLTGSKHRLRDYFLYNEYGPNYEEWGDYLATLDVWGHGTAVTVSS
VL: EVVITQSPLFLPVTPGEAASLSCKCSHSLQHSTGANYLAWYLQRPGQTPRLLIHLATHRASGVPDRFSGSGSGTDFTLKISRVESDDVGTYYCMQGLHSPWTFGQGTKVEIK
B11: 4995_E20 (PGT-142) (antibody, V domains shown)
VH: QVQLVQSGPEVKKPGSSVKVSCKASGNTFSKYDVHWVRQATGQGLEWVGWISHERDKTESAQRFKGRVTFTRDTSATTAYMELRGLTSDDTAIYYCTRGSKHRLRDYVLYDDYGLINYQEWNDYLEFLDVWGHGTAVTVSS
VL: DTVVTQSPLSLPVTPGEAASMSCSSTQSLRHSNGANYLAWYQHKPGQSPRLLIRLGSQRASGVPDRFSGSGSGTHFTLKISRVEAEDAAIYYCMQGLNRPWTFGKGTKLEIK
B12: 4993_K13 (PGT-141) (antibody, V domains shown)
VH: B11 VH with I51M, R55G, T77S
VL: B11 VL
B13: 4980_N08 (PGT-143) (antibody, V domains shown)
VH: B11 VH with V5E, P9A, I51M, R55G, T77S
VL: B11 VL with S24T, A85P
B14: 4970_K22 (PGT-144) (antibody, V domains shown)
VH: B11 VH with P9A, S30R, I51M, R55G, T69S, T74N, T77S, M81I, R98G, Y118Q
VL: B11 VL with P12S, S24T, E86D

Key:
Test in all cases: cell-based or functional assay
[1] = target: Env of the clade C HIV-1 pseudoviruses of the 162-pseudovirus panel (n = 27)
[2] = target: Env of all HIV-1 pseudoviruses of the cross-clade 162-pseudovirus panel (n = 162)
[3] = target: 162-pseudovirus panel representing all major circulating HIV-1 subtypes
[4] = target: Env of the clade B HIV-1 pseudoviruses of the 162-pseudovirus panel (n = 31)
[5] = target: Env of the clade A HIV-1 pseudoviruses of the 162-pseudovirus panel (n = 26)
[6] = target: Env of the clade G HIV-1 pseudoviruses of the 162-pseudovirus panel (n = 15)
[7] = target: Env of the clade D HIV-1 pseudoviruses of the 162-pseudovirus panel (n = 25)
[8] = target: Env of the clade F HIV-1 pseudoviruses of the 162-pseudovirus panel (n = 15)
[9] = target: Env of the clade AG HIV-1 pseudoviruses of the 162-pseudovirus panel (n = 10)
[10] = target: Env of the clade AE HIV-1 pseudoviruses of the 162-pseudovirus panel (n = 10)

| Binder | Median IC50 (µg/ml) against viruses neutralized with an IC50 <50 µg/ml [1] [µg/mL] | Median IC50 (µg/ml) against viruses neutralized with an IC50 <50 µg/ml [2] [µg/mL] | Median IC50 (µg/ml) against viruses neutralized with an IC50 <50 µg/ml [3] [µg/mL] | Median IC50 (µg/ml) against viruses neutralized with an IC50 <50 µg/ml [4] [µg/mL] | Median IC50 (µg/ml) against viruses neutralized with an IC50 <50 µg/ml [5] [µg/mL] | Median IC50 (µg/ml) against viruses neutralized with an IC50 <50 µg/ml [6] [µg/mL] | Median IC50 (µg/ml) against viruses neutralized with an IC50 <50 µg/ml [7] [µg/mL] | Median IC50 (µg/ml) against viruses neutralized with an IC50 <50 µg/ml [8] [µg/mL] | Median IC50 (µg/ml) against viruses neutralized with an IC50 <50 µg/ml [9] [µg/mL] | Median IC50 (µg/ml) against viruses neutralized with an IC50 <50 µg/ml [10] [µg/mL] |
| --- | --- | --- | --- | --- | --- | --- | --- | --- | --- | --- |
| B1 | 0.02 | 0.03 | 0.03 | 0.02 | 0.02 | 0.02 | 0.01 |  |  |  |
| B2 | 0.03 | 0.05 | 0.05 | 0.02 | 0.07 | 0.05 | 0.02 |  |  |  |
| B3 | 0.01 | 0.03 | 0.03 | 0.02 | 0.02 | 0.04 | 0.02 | 0.09 |  |  |
| B4 |  | 0.08 | 0.08 | 0.06 | 0.02 |  |  |  | 0.04 |  |
| B5 | 0.04 | 0.02 | 0.02 | 0.01 | 0.01 | 0.04 | 0.02 |  |  | 0.06 |
| B6 |  |  |  | 0.09 | 0.09 |  |  | 0.07 | 0.04 |  |
| B7 |  |  |  | 0.07 | 0.09 |  |  |  |  | 0.08 |
| B8 | 0.05 |  |  |  |  |  |  |  |  |  |
| B9 |  |  |  |  |  |  | 0.05 |  |  |  |
| B10 |  |  |  | 0.09 | 0.4 |  |  |  |  |  |
| B11 | 0.09 |  |  | 0.4 |  |  |  |  |  | 0.01 |
| B12 |  |  |  |  |  | 0.3 |  |  |  | 0.01 |
| B13 |  |  |  |  |  |  |  |  |  | 0.02 |
| B14 |  |  |  |  |  |  |  |  |  | 0.1 |

Reference: patent US20250320281A1
